For two compounds, Color results are on record in US6642031B2, “Microorganisms with ability to degrade indole and enzymes therefrom” (Genencor International, Inc., priority 1995, dated 2003).

This data set deals with indole oxidase. Put plainly: Cell-free oxygen uptake in WW2 indole-induced cell extract. It counts as biochemical, Pseudomonas putida. The note with it: colour of the reaction, substrate 0.3 mM, 1 mM NADH.

For the compound `Clc1ccc2[nH]ccc2c1` [5-Cl-Indole], the Color result was “blue”.
To `Clc1ccc2cc[nH]c2c1` [6-Cl-Indole] belongs “pink”.
